Measured values from several laboratories, pooled; numbers as filed in NIAID ChemDB.

Shared fields: whole-cell or culture tests; species: HIV-1; cells: MT-4; read by: MTT; measure: EC50

Blank or dashed fields: not listed here. ECn: concentration that inhibits the pathogen or its effect by n%. Neighbouring rows are from separate reports.

SMILES,strain or isolate,mutations,result
Cc1cc(/C=C/C#N)cc(C)c1Oc1ccnc(S(=O)(=O)CC(=O)Nc2ccc(Cl)cc2)n1,IIIB,K103N,0.007 µM
CCc1c(Cc2ccccc2C)n(COC/C(Br)=C(\Br)c2ccccc2)c(=O)[nH]c1=O,IIIB,EFV-resistant (K103R V179D P225H),>26 µM
Cc1cc(-c2ccc(C#N)cc2)cc(C)c1Oc1ccnc(S(=O)(=O)CC(=O)NCCc2ccc(Cl)cc2)n1,IIIB,-,>8.27 µM
CCc1c(Cc2cc(C)cc(C)c2)n(COCC#Cc2ccc(O[Si](c3ccccc3)(c3ccccc3)C(C)(C)C)cc2)c(=O)[nH]c1=O,IIIB,Y181C,20 µM
Cc1cc(C#N)cc(C)c1Oc1nc(NC2CCC(NCc3ccccc3)CC2)nc2ccsc12,IIIB,NNRTI-resistant (RT L100I),0.983 µM
Cc1nc2c(c(C)c(C)n2CC2CC2)c(-c2ccc(Cl)cc2)c1C(OC(C)(C)C)C(=O)O,IIIB,-,0.033 µM
Cc1cc(/C=C/C#N)cc(C)c1Oc1nc(NC2CCN(Cc3ccc(C#N)cc3)CC2)nc2ccsc12,IIIB,NNRTI-resistant (RT Y188L),0.0332 µM
Cc1nc2c(c(C)c(C)n2Cc2cnccn2)c(-c2ccc(Cl)cc2)c1[C@H](OC(C)(C)C)C(=O)O,IIIB,-,0.00466 µM
Cc1cc(C#N)cc(C)c1Oc1nc(NC2CCN(Cc3ccc(S(C)(=O)=O)cc3)CC2)nc2sccc12,IIIB,NNRTI-resistant (RT F227L V106A),0.00868 µM
Cc1nc2c(c(C)c(C)n2Cc2cccnc2)c(-c2ccc(Cl)cc2)c1[C@H](OC(C)(C)C)C(=O)O,IIIB,-,0.015 µM
CCc1c(Cc2cc(C)cc(C)c2)n(COCC#Cc2cccc(CO)c2)c(=O)[nH]c1=O,IIIB,WT,0.003 µM
COc1cc(Cn2c(C)c(C)c3c(-c4ccc(Cl)cc4)c(C(OC(C)(C)C)C(=O)O)c(C)nc32)cc(Cl)n1,IIIB,-,0.111 µM
Cc1cc(/C=C/C#N)cc(C)c1Oc1nc(NC2CCN(Cc3ccccn3)CC2)nc2ccsc12,IIIB,NNRTI-resistant (RT E138K),0.00746 µM
Cc1nc2c(c(C)c(C)n2CCC#N)c(-c2ccc(Cl)cc2)c1C(OC(C)(C)C)C(=O)O,IIIB,-,0.00639 µM
C=CCn1cc(COCn2c(Cc3cc(C)cc(C)c3)c(CC)c(=O)[nH]c2=O)nn1,IIIB,WT,0.01 µM
Cc1cc(C#N)cc(C)c1Oc1ccnc(S(=O)(=O)CC(=O)Nc2ccc(C#N)cc2)n1,IIIB,K103N,0.003 µM
Cc1cc(C#N)cc(C)c1Oc1nc(NC2CCC(NCc3ccc([N+](=O)[O-])cc3)CC2)nc2ccsc12,RES056,-,≥5.44 µM
Cc1cc(-c2ccc(C#N)cc2)cc(C)c1Oc1ccnc(S(=O)(=O)C(C)C(=O)Nc2ccc(C#N)cc2)n1,IIIB,K103N,0.019 µM
CCc1c(Cc2cc(C)cc(C)c2)n(COCC#Cc2cccs2)c(=O)[nH]c1=O,IIIB,Y181C,2.5 µM
Cc1nc2c(c(C)c(C)n2CC(=O)O)c(-c2ccc(Cl)cc2)c1[C@H](OC(C)(C)C)C(=O)O,IIIB,-,2.04 µM
CCc1c(Cc2cc(C)cc(C)c2)n(COCC#Cc2ccc(CO[Si](c3ccccc3)(c3ccccc3)C(C)(C)C)cc2)c(=O)[nH]c1=O,IIIB,EFV-resistant (K103R V179D P225H),>100 µM
Cc1cc(-c2ccc(C#N)cc2)cc(C)c1Oc1ccnc(S(=O)(=O)CC(=O)NCc2ccc(C#N)cc2)n1,IIIB,-,1.28 µM
CCc1c(Cc2ccccc2C)n(COCC#Cc2ccccc2)c(=O)[nH]c1=O,IIIB,K103N + Y181C,>26 µM
Cc1cc(/C=C/C#N)cc(C)c1Oc1nc(NC2CCN(Cc3ccc(Cl)cc3)CC2)nc2ccsc12,IIIB,NNRTI-resistant (RT E138K),0.152 µM

2 of the rows above, restated:

CCc1c(Cc2cc(C)cc(C)c2)n(COCC#Cc2ccc(CO[Si](c3ccccc3)(c3ccccc3)C(C)(C)C)cc2)c(=O)[nH]c1=O ; strain or isolate: IIIB ; mutations: EFV-resistant (K103R V179D P225H) ; result: >100 µM
Cc1nc2c(c(C)c(C)n2CC(=O)O)c(-c2ccc(Cl)cc2)c1[C@H](OC(C)(C)C)C(=O)O ; strain or isolate: IIIB ; result: 2.04 µM